Taken from: PubChem BioAssay AID1259414 (Drosophila RNAi Screening Center, 2018)
The deposit covers about 24,000 reagents; this is a random part of those that have a named target and a result. Of all reagents, about 1,210 (5%) are marked active. 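Inactive calls also include excluded dsRNAs with several or no targets, genes unexpressed in JW18, and well A1, regardless of score.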

Purpose: 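Genome-wide screen for host control of endosymbiont load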 (primary screen)
Cells: Drosophila JW18 cells infected with Wolbachia
Knock-down reagent: long dsRNA against Drosophila genes, 0.25 µg dsRNA per well of a 384-well plate
Timing: 5 days
Conditions: cells persistently infected with Wolbachia before knock-down; no added drug
Detection: 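Imaged fluorescence in situ signal for Wolbachia 23S rRNA per DAPI-counted host cell, given as a robust z-score within each plate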
Reading the numbers: Wolbachia per cell robust z: higher = more Wolbachia per host cell than the plate typical
Call rule: 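Active if absolute robust z reaches 1.5 in two or more of three replicates, leaving out multi- or no-target dsRNAs, genes unexpressed in JW18 and A1 wells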

target gene | dsRNA | Wolbachia per cell robust z, rep 1 | Wolbachia per cell robust z, rep 2 | Wolbachia per cell robust z, rep 3 | Outcome
wcd | DRSC07051 | -0.306 | -0.229 | 0.428 | inactive
CG6276 | DRSC16007 | -0.428 | -0.0319 | -0.222 | inactive
CG6276 | DRSC27870 | -0.306 | -0.826 | -11.3 | inactive
Uxs | DRSC10941 | 0.614 | -0.664 | 0.131 | inactive
Uxs | DRSC28512 | 0.202 | 0.211 | -0.182 | inactive
Nrk | DRSC07480 | -1.03 | -0.716 | 0.0231 | inactive
CanB | DRSC18449 | -0.84 | 1.32 | 0.491 | inactive
CanB | DRSC29220 | 0.147 | 0.443 | -0.245 | inactive
CanB | DRSC41553 | -1.66 | -0.676 | -0.252 | inactive
CG1774 | DRSC15258 | 0.356 | -9.79 | -8.5 | active
mfr | DRSC10543 | 1.12 | -0.642 | -3.38 | inactive
CG18744 | DRSC15381 | -0.415 | -0.724 | -0.667 | inactive
CG5177 | DRSC02824 | 0.377 | 0.091 | 0.0495 | inactive
CG2247 | DRSC19844 | -3.94 | 1.03 | 0.396 | inactive
Cnx99A | DRSC25426 | -0.841 | 0.733 | 0.484 | inactive
SIFa | DRSC04480 | 1.06 | -0.588 | 1.97 | inactive
gro | DRSC16962 | -4.25 | 1.36 | -0.245 | inactive
gro | DRSC40786 | -0.24 | 0.149 | -0.291 | inactive
CG11695 | DRSC19416 | 1.06 | -0.413 | -2.4 | inactive
CG11695 | DRSC29760 | -4.53 | 0.227 | -6.73 | active
CG1888 | DRSC06797 | -1.02 | -0.545 | -0.541 | inactive
eIF3d1 | DRSC16938 | 0.287 | 0.993 | 0.846 | inactive
roq | DRSC10227 | -2.5 | -1.64 | -1.91 | active
Smyd4-3 | DRSC07041 | 0.252 | -0.401 | -2.04 | inactive
Smyd4-3 | DRSC28851 | 0.696 | -1.37 | -0.272 | inactive
Shal | DRSC09625 | -1.23 | 0.203 | -0.227 | inactive
Shal | DRSC11283 | -0.912 | -0.28 | 0.165 | inactive
DIP1 | DRSC20818 | 0.392 | 0.872 | 1.81 | inactive
DIP1 | DRSC27354 | 1.57 | 1.25 | 0.854 | inactive

Records above with an active call (3):
target gene | dsRNA | Wolbachia per cell robust z, rep 1 | Wolbachia per cell robust z, rep 2 | Wolbachia per cell robust z, rep 3 | Outcome
CG1774 | DRSC15258 | 0.356 | -9.79 | -8.5 | active
CG11695 | DRSC29760 | -4.53 | 0.227 | -6.73 | active
roq | DRSC10227 | -2.5 | -1.64 | -1.91 | active
